A mixed list of measured activities; the numbers were collected in NIAID ChemDB.

Shared fields: whole-cell or culture tests; species: Candida albicans

A number after MIC or MFC names an inhibition level or a share of isolates.

SMILES,measure,read by,strain or isolate,value
CC(c1ccc(Cl)s1)C(O)(Cn1ccnc1)c1ccc(Cl)cc1Cl,MIC80,,,8 µg/mL
Clc1cc(Cl)c2c(c1)CCc1ccccc1C2n1ccnc1,MIC90,,35 isolates,0.5 µg/mL
Clc1ccc(-c2csc(N3N=C(c4cccs4)CC3c3ccc(Cl)cc3)n2)cc1,MIC,,Clinical isolates,125 µg/mL
Cc1c(CN2CCN(C)CC2)cc(-c2ccc(Cl)cc2)n1-c1ccccc1,Mean MIC,,20 strains,64.4 µg/mL
O=C1CSC(N2N=C(c3ccc(O)cc3)CC2c2cc3ccccc3nc2Cl)=N1,MIC100,,MTCC 227,1000 µg/mL
c1ccc(-c2csc(NN=C3CCCCCC3)n2)cc1,MFC,,,12.5 µg/mL
O/N=C/c1cc[n+](Cc2ccc(C[n+]3ccc(/C=N/O)cc3)s2)cc1.[Cl-].[Cl-],EC50,broth dilution,,>20 µg/mL
N/C(=N/N=C1CCCCCCC1)SCc1ccc(Cl)cc1Cl,MFC,,,>200 µg/mL
Oc1c(-c2ccc(Cl)cc2Cl)nc2ncccn12,MIC,,A,>125 µg/mL
Cc1ccc(C2=NN(S(C)(=O)=O)C(c3cn(-c4ccccc4)nc3-c3ccc(Br)s3)C2)cc1,MIC,,,>200 µg/mL
Cc1c(CN2CCCC2)cc(-c2ccc(Cl)cc2)n1-c1ccc(Cl)cc1Cl,Mean MIC,,20 strains,70.2 µg/mL
Cc1c(O)cccc1C(=O)N[C@@H](CSc1ccccc1)[C@H](O)CN1C[C@H]2CCCC[C@H]2C[C@H]1C(=O)NC(C)(C)C,MIC,,I49C,>64 µg/mL
C[C@H]1[C@H](O)[C@@H](C)/C=C/C=C/C=C/C=C/C=C/C=C/C=C/[C@H](O[C@@H]2O[C@H](C)[C@@H](O)[C@H](N)[C@@H]2O)C[C@@H]2O[C@](O)(C[C@@H](O)C[C@@H](O)CC[C@H](O)[C@@H](O)C[C@@H](O)CC(=O)O[C@H]1C)C[C@H](O)[C@H]2C(=O)O,MFC,,ATCC 10231,5 µg/mL
O=C1CSC(N2N=C(c3ccccc3F)CC2c2cc3ccccc3nc2Cl)=N1,MIC100,,MTCC 227,1000 µg/mL
NC(=O)c1cc[n+](Cc2ccc(C[n+]3ccc(/C=N/O)cc3)s2)cc1.[Cl-].[Cl-],EC50,broth dilution,,>20 µg/mL
COc1ccc(-c2nc3ccccn3c2O)cc1,MIC,,A,>125 µg/mL
Cc1ccc(-c2cc(-c3cn(-c4ccccc4)nc3-c3ccc(Br)s3)n(-c3ccccc3)n2)cc1,MIC,,,200 µg/mL
Nc1[nH]c(=O)ncc1F,MFC,,ATCC 10231,40 µg/mL
Cc1ccc(-c2nn(-c3ccccc3)cc2/C=N/N=c2\sc3c(=O)[nH]c(=S)[nH]c3n2-c2ccccc2)cc1,MIC,,,>200 µg/mL
CC(=O)c1cccc(-c2nc3ccccn3c2O)c1,MIC,,A,>125 µg/mL
N/C(=N/N=C1CCCCCC1)SCc1ccc(Cl)cc1Cl,MFC,,,>200 µg/mL
Oc1c(-c2ccc(Cl)cc2)nc2ncccn12,MIC,,A,>125 µg/mL
CC1CCCCC/C1=N\Nc1nc(-c2ccccc2)cs1,MFC,,,3.12 µg/mL
Cc1c(CN2CCCC2)cc(-c2ccccc2)n1-c1ccc([N+](=O)[O-])cc1,Mean MIC,,20 strains,219 µg/mL
Cc1ccc(-c2nn(-c3ccccc3)cc2/C=N/NC2SC(C(N)=O)=C(N)N2c2ccc(C)cc2)cc1,MIC,,,>200 µg/mL
O=C1CSC(N2N=C(c3ccccc3Cl)CC2c2cc3ccccc3nc2Cl)=N1,MIC100,,MTCC 227,500 µg/mL
Cc1ccc(-c2ccccc2)n1-c1ccc([N+](=O)[O-])cc1,Mean MIC,,20 strains,>200 µg/mL
COc1ccc(-c2csc(N3N=C(c4cccs4)CC3c3ccc4c(c3)OCO4)n2)cc1,MIC,,Clinical isolates,250 µg/mL
Cc1c(CN2CCCC2)cc(-c2ccccc2)n1-c1ccccc1,Mean MIC,,20 strains,126.9 µg/mL
Cc1cccc(-c2cc(-c3cc4cc(F)ccc4oc3=O)nc(NS(=O)(=O)c3ccccc3)c2C#N)c1,MIC,turbidity,MTCC 227,1000 µg/mL
c1ccc(-c2csc(N3N=C(c4cccs4)CC3c3ccc4c(c3)OCO4)n2)cc1,MIC,,Clinical isolates,250 µg/mL
N/C(=N/N=C1CCCC1)SCc1ccccc1,MIC,,,>200 µg/mL
Clc1ccc(COC(Cn2ccnc2)c2ccc(Cl)cc2Cl)c(Cl)c1,MIC,,ATCC 10231,5 µg/mL
O/N=C/c1ccc[n+](Cc2ccc(C[n+]3cccc(/C=N/O)c3)s2)c1.[Cl-].[Cl-],EC50,broth dilution,,>20 µg/mL
COc1cc(O)c2c(c1)C(=O)c1c(cc3c(c1O)-c1c(cc(C)c(C(=O)N[C@H](C)C(=O)O)c1O)[C@H](O[C@@H]1O[C@H](C)[C@H](O)[C@H](O[C@@H]4OC[C@@H](O)[C@H](O)[C@H]4O)[C@H]1O)[C@H]3O)C2=O,MIC,,TIMM1768,12.5 µg/mL
COc1ccc(-c2nc3ncccn3c2O)cc1,MIC,,A,>125 µg/mL
Cc1ccc(C2=NN(S(=O)(=O)c3ccc(C)cc3)C(c3cn(-c4ccccc4)nc3-c3ccc(Br)s3)C2)cc1,MIC,,,>200 µg/mL
Oc1c(-c2ccc(-c3ccccc3)cc2)nc2ncccn12,MIC,,A,>125 µg/mL
Fc1ccc(C2CC(c3cccs3)=NN2c2nc(-c3ccc(Cl)cc3)cs2)cc1,MIC,,Clinical isolates,125 µg/mL
N/C(=N/N=C1CCCCCCC1)SCc1ccccc1,MIC,,,>200 µg/mL
COCCOCCOCCOCCOCCOCCOCCOCCOCCOCCOCCOCCOCCOCCOCCNC(=O)[C@H]1[C@@H]2C[C@@H](O[C@@H]3O[C@H](C)[C@@H](O)[C@H](N)[C@@H]3O)/C=C/C=C/C=C/C=C/C=C/C=C/C=C/[C@H](C)[C@@H](O)[C@H](C)[C@H](C)OC(=O)C[C@H](O)C[C@H](O)[C@@H](O)CC[C@H](O)C[C@H](O)C[C@](O)(C[C@@H]1O)O2,MIC,,3 strains,6.4 µg/mL
CCC(C)CC(C)CCCCCCCCC(=O)N[C@H]1C[C@@H](O)[C@H](NCCN)NC(=O)[C@@H]2[C@@H](O)CCN2C(=O)[C@H]([C@H](O)CCN)NC(=O)[C@H]([C@H](O)[C@@H](O)c2ccc(O)cc2)NC(=O)[C@@H]2C[C@@H](O)CN2C(=O)[C@H]([C@@H](C)O)NC1=O,MIC,,OY-31.5,0.03 µg/mL
CC(C)=CCC/C(C)=C/CC/C(C)=C/CO,EC50,,,>100 µg/mL
Cc1ccc(-c2nn(-c3ccccc3)cc2/C=N/n2c(=S)[nH]c3c(sc(=S)n3-c3ccc(C)cc3)c2=O)cc1,MIC,,,100 µg/mL
Cc1ccc(-c2ccc(Cl)cc2)n1-c1ccc(Cl)cc1,Mean MIC,,20 strains,>200 µg/mL
N#Cc1c(-c2ccc(O)cc2)cc(-c2cc3cc(F)ccc3oc2=O)nc1NS(=O)(=O)c1ccccc1,MIC,turbidity,MTCC 227,250 µg/mL
O/N=C/c1cccc[n+]1Cc1ccc(Br)s1.[Cl-],EC50,broth dilution,,>20 µg/mL
N#Cc1c(-c2cccc(O)c2)cc(-c2cc3cc(F)ccc3oc2=O)nc1NS(=O)(=O)c1ccccc1,MIC,turbidity,MTCC 227,250 µg/mL
CCOC(=O)c1ccccc1S(=O)(=O)NC(=O)Nc1nc(Br)cc(OC)n1,MIC50,broth dilution,,1 µM
Cc1ccc(-c2nn(-c3ccccc3)cc2/C=N/n2c(C)nc3c(sc(=S)n3-c3ccc(C)cc3)c2=O)cc1,MIC,,,>200 µg/mL
NC(=O)c1cc[n+](CCCC[n+]2ccccc2/C=N/O)cc1.[Br-].[Br-],EC50,broth dilution,,>20 µg/mL
N/C(=N/N=C1CCCC1)SCc1ccccc1Cl,MIC,,,>200 µg/mL
CC(=O)c1cccc(-c2nc3ncccn3c2O)c1,MIC,,A,>125 µg/mL
O=C1CSC(N2N=C(c3cccc(F)c3)CC2c2cc3ccccc3nc2Cl)=N1,MIC100,,MTCC 227,100 µg/mL
Clc1ccccc1C(c1ccccc1)(c1ccccc1)n1ccnc1,MIC,,,12.5 µg/mL
CC1(C)S[C@@H]2[C@H](NC(=O)[C@H](N)c3ccccc3)C(=O)N2[C@H]1C(=O)O,MIC,broth dilution,ATCC 2002,4.7 µg/mL
Cc1c(CN2CCCC2)cc(-c2ccc(Cl)cc2)n1-c1ccc(Cl)cc1,Mean MIC,,20 strains,59.8 µg/mL
Oc1c(-c2ccc(F)cc2)nc2ccccn12,MIC,,A,>125 µg/mL
Cc1c(CN(C)C)cc(-c2ccc(Cl)cc2)n1-c1ccc(Cl)cc1Cl,Mean MIC,,20 strains,61 µg/mL
Cc1ccc(-c2nn(-c3ccccc3)cc2/C=N/NC(=O)c2sc(=S)n(-c3ccc(C)cc3)c2N)cc1,MIC,,,>200 µg/mL

The first 8 rows once more:

SMILES	measure	read by	strain or isolate	value
CC(c1ccc(Cl)s1)C(O)(Cn1ccnc1)c1ccc(Cl)cc1Cl	MIC80			8 µg/mL
Clc1cc(Cl)c2c(c1)CCc1ccccc1C2n1ccnc1	MIC90		35 isolates	0.5 µg/mL
Clc1ccc(-c2csc(N3N=C(c4cccs4)CC3c3ccc(Cl)cc3)n2)cc1	MIC		Clinical isolates	125 µg/mL
Cc1c(CN2CCN(C)CC2)cc(-c2ccc(Cl)cc2)n1-c1ccccc1	Mean MIC		20 strains	64.4 µg/mL
O=C1CSC(N2N=C(c3ccc(O)cc3)CC2c2cc3ccccc3nc2Cl)=N1	MIC100		MTCC 227	1000 µg/mL
c1ccc(-c2csc(NN=C3CCCCCC3)n2)cc1	MFC			12.5 µg/mL
O/N=C/c1cc[n+](Cc2ccc(C[n+]3ccc(/C=N/O)cc3)s2)cc1.[Cl-].[Cl-]	EC50	broth dilution		>20 µg/mL
N/C(=N/N=C1CCCCCCC1)SCc1ccc(Cl)cc1Cl	MFC			>200 µg/mL

Blank or dashed fields: not listed here. ECn is the concentration giving n% inhibition of infection, replication or growth. Neighbouring rows are from separate reports.